Measurements as given in paper PMC3360003, “Dissection of Influenza A Virus M1 Protein: pH-Dependent Oligomerization of N-Terminal Domain and Dimerization of C-Terminal Domain” (2012).

How the values were obtained:
[1] = molecular target: M1C, C-terminal domain of M1 (residues 165-252) (Influenza A virus A/chicken/Jiangsu/1/1998 (H9N2)); assay: AUC
[2] = molecular target: M1C, C-terminal domain of M1 (residues 165-252) (Influenza A virus A/chicken/Jiangsu/1/1998 (H9N2)); assay: cross-linking

Substance: M1C, C-terminal domain of M1 (residues 165-252) (domain or fragment)
- stoichiometry N [1]: 2
- stoichiometry N [2]: 2
